Data published in US20110158985A1, “Methods of preventing and treating rsv infections and related conditions” (published 2011).
Where “and” joins values, the source holds several entries; their conditions need not be identical. Identical values can stand only once.

Target: F protein of RSV (Long strain) (RSV (Long strain), UniProt P12568 26-574)
Test: cell-based or functional assay

Binder	Microneutralization IC50, Fab
DG (aka D95/G93) Fab (Fab, V domains shown) VH: QVTLRESGPALVKPTQTLTLTCTFSGFSLSTAGMSVGWIRQPPGKALEWLADIWWDDKKDYNPSLKSRLTISKDTSKNQVVLKVTNMDPADTATYYCARDMITNFYFDVWGQGTTVTVSS VL: DIQMTQSPSTLSASVGDRVTITCSASSSVGYMHWYQQKPGKAPKLLIYDTFKLASGVPSRFSGSGSGTEFTLTISSLQPDDFATYYCFQGSGYPFTFGGGTKVEIK	0.126 µg/ml and 2.52 nM
A1h5 Fab (Fab, V domains shown) VH: QVTLRESGPALVKPTQTLTLTCTFSGFSLSTAGMSVGWIRQPPGKALEWLADIWWDGKKHYNPSLKDRLTISKDTSKNQVVLKVTNMDPADTATYYCARDMIFNWYFDVWGQGTTVTVSS VL: DIQMTQSPSTLSASVGDRVTITCSLSSSVGYMHWYQQKPGKAPKLLIYDTFFHRSGVPSRFSGSGSGTEFTLTISSLQPDDFATYYCFQGSGYPFTFGGGTKVEIK	0.194 µg/ml and 3.88 nM
P12f4 Fab (Fab, V domains shown) VH: QVTLRESGPALVKPTQTLTLTCTFSGFSLSTPGMSVGWIRQPPGKALEWLADIWWDGKKHYNPSLKDRLTISKDTSKNQVVLKVTNMDPADTATYYCARDMIFNFYFDVWGQGTTVTVSS VL: DIQMTQSPSTLSASVGDRVTITCSLSSRVGYMHWYQQKPGKAPKLLIYDTRGLPSGVPSRFSGSGSGTEFTLTISSLQPDDFATYYCFQGSGYPFTFGGGTKVEIK	0.93 nM
